Measured values from several laboratories, pooled; numbers as filed in NIAID ChemDB.

All rows: whole-cell or culture tests; organism: Aspergillus niger

ECn: concentration that inhibits the pathogen or its effect by n%. Zones are inhibition diameters on agar. An empty or dashed field is not shown. Inhibition is in % at the dose shown (toxicity tests: loss of growth or viability). Neighbouring rows are from separate reports. MIC50, MIC90 and the like: level of inhibition, or share of isolates inhibited. Two numbers with a dash give a range or band.

c1ccc2ccccc2c1 ; tested at: 50000 µg/mL ; read by: agar diffusion / agar ; endpoint: zone ; value: 0.67 mm
CCCCCOc1ccc(-c2cc(-c3ccc(C(=O)N[C@H]4C[C@@H](O)[C@@H](O)NC(=O)[C@@H]5[C@@H](O)[C@@H](C)CN5C(=O)[C@H]([C@H](O)CC(N)=O)NC(=O)[C@H]([C@H](O)[C@@H](O)c5ccc(O)c(OS(=O)(=O)O)c5)NC(=O)[C@@H]5C[C@@H](O)CN5C(=O)[C@H]([C@@H](C)O)NC4=O)cc3)no2)cc1 ; endpoint: MIC50 ; value: 0.015 µg/mL
O=C1NC(=O)C(=Cc2cn(-c3ccccc3)nc2-c2cc3cc(Br)ccc3oc2=O)C(=O)N1 ; tested at: 150 µg ; read by: agar diffusion / agar ; endpoint: zone ; value: 20 mm
NC(=O)c1ccc(Cc2cn(CCc3ccccc3)c(=O)n(Cc3ccccc3)c2=O)cc1 ; tested at: 50000 µg/mL ; read by: agar diffusion / agar ; endpoint: zone ; value: 1.02 mm
O=C1C=C(NCCN2CCOCC2)C(=O)c2ccccc21 ; strain or isolate: MTCC 404 ; read by: broth dilution ; endpoint: MIC100 ; value: 62.5 µg/mL
O=C1C(c2ccccn2)=[N+]([O-])c2ccccc21 ; endpoint: MFC ; value: 62.5 µg/mL
OC(Cn1cncn1)(Cn1cncn1)c1ccc(F)cc1F ; strain or isolate: CCAM 080002 ; read by: broth dilution ; endpoint: MFC100 ; value: 2.5 µg/mL
Oc1ccccc1 ; tested at: 50000 µg/mL ; read by: agar diffusion / agar ; endpoint: zone ; value: 0.43 mm
CC(C)=CCC/C(C)=C/CO ; strain or isolate: NRRL 501 ; read by: broth dilution ; endpoint: MFC ; value: 288 µg/mL
O=C1C(c2ccc(Oc3ccccc3)cc2)=[N+]([O-])c2ccccc21 ; endpoint: MFC ; value: >500 µg/mL
CC[C@@H]([C@H](C)O)n1ncn(-c2ccc(N3CCN(c4ccc(OC[C@@H]5CO[C@@](Cn6cncn6)(c6ccc(F)cc6F)C5)cc4)CC3)cc2)c1=O ; endpoint: MIC50 ; value: 0.25–0.5 µg/mL
Cc1ccc(C(C)C)c(O)c1 ; endpoint: EC50 ; value: 0.6 µg/mL
Cc1nc(Nc2ccccc2)nc(C)c1C#N ; tested at: 1000 µg/mL ; endpoint: zone ; value: 2.5 mm
CCCCCOc1ccc(-c2ccc(-c3ccc(C(=O)N[C@H]4C[C@@H](O)[C@@H](O)NC(=O)[C@@H]5[C@@H](O)[C@@H](C)CN5C(=O)[C@H]([C@H](C)O)NC(=O)[C@H]([C@H](O)[C@@H](O)c5ccc(O)cc5)NC(=O)[C@@H]5C[C@@H](O)CN5C(=O)[C@H]([C@H](C)O)NC4=O)cc3)cc2)cc1 ; endpoint: MIC90 ; value: 0.015 µg/mL
O=C1NC(=S)NC(=O)C1=Cc1cn(-c2ccccc2)nc1-c1cc2ccccc2oc1=O ; tested at: 150 µg ; read by: agar diffusion / agar ; endpoint: zone ; value: 0 mm
CC(=O)OCCOCCn1nnc(Cn2cc(C(C)=O)c3ccccc32)n1 ; read by: agar ; endpoint: MIC99 ; value: 160 µg/mL
CNC1=CC(=O)c2ccccc2C1=O ; strain or isolate: ATCC 404 ; read by: broth dilution ; endpoint: MIC100 ; value: 62.5 µg/mL
O=C1C(c2ccc(Cl)cc2)=[N+]([O-])c2cccnc21 ; endpoint: MFC ; value: >500 µg/mL
Clc1ccc([Se][Se]c2ccc(Cl)cc2)cc1 ; read by: broth dilution ; endpoint: MFC ; value: >64 µg/mL
CO[C@H]1O[C@@H](Oc2cc(O)c3c(=O)c(-c4ccc(O)cc4)coc3c2)[C@H](O)[C@@H](O)[C@@H]1O ; tested at: 1000 µg/mL ; endpoint: inhibition ; value: 85%
COc1ccc([Se][Se]c2ccc(OC)cc2)cc1 ; read by: broth dilution ; endpoint: MFC ; value: >64 µg/mL
Cc1nc(Nc2ccccc2)nc(C)c1Br ; tested at: 1000 µg/mL ; endpoint: zone ; value: 2.9 mm
OC(Cn1cncn1)(Cn1cncn1)c1ccc(F)cc1F ; tested at: 100 µg ; read by: agar diffusion / agar ; endpoint: zone ; value: 30 mm
CC(=O)OC1OC(Sc2nnc(Cn3nnc(Cn4cc(C(C)=O)c5ccccc54)n3)n2-c2ccc(Cl)cc2)C(OC(C)=O)C(OC(C)=O)C1OC(C)=O ; read by: agar ; endpoint: MIC99 ; value: 150 µg/mL
CN(C)C1=NC(=O)/C(=C/c2ccccc2)S1 ; strain or isolate: ATCC 9029 ; read by: broth dilution ; endpoint: MIC100 ; value: >250 µg/mL
O=C1NC(=O)C(=Cc2cn(-c3ccccc3)nc2-c2cc3ccc4ccccc4c3oc2=O)C(=O)N1 ; tested at: 150 µg ; read by: agar diffusion / agar ; endpoint: zone ; value: 0 mm
C[C@@H]1[C@H](O)[C@@H](C)/C=C/C=C/CC/C=C/C=C/C=C/C=C/C(O[C@H]2O[C@H](C)[C@@H](O)[C@H](N)[C@@H]2O)CC2O[C@](O)(CC(O)C(O)CCC(O)CC(O)CC(O)CC(=O)O[C@H]1C)CC(O)C2C(=O)O ; strain or isolate: ATCC 16404 ; read by: broth dilution ; endpoint: MIC100 ; value: 0.78 µg/mL
Cc1ccc(C(C)C)cc1 ; endpoint: EC50 ; value: 1.2 µg/mL
COc1ccc2c(c1)C(=O)C(c1ccc(-c3ccc(Cl)cc3)cc1)=[N+]2[O-] ; endpoint: MFC ; value: >250 µg/mL
C[C@@H]1O[C@@H](OC[C@H]2O[C@@H](Oc3ccc(-c4oc5cc(O)cc(O)c5c(=O)c4O)cc3)[C@H](O)[C@@H](O)[C@@H]2O)[C@H](O)[C@H](O)[C@H]1O ; tested at: 10000 µg/mL ; read by: agar diffusion / agar ; endpoint: zone ; value: 0 mm
Nc1[nH]c(=O)ncc1F ; endpoint: MIC50 ; value: >64 µg/mL
CC(C)=CCC/C(C)=C/CO ; strain or isolate: IOA-3 ; read by: broth dilution ; endpoint: MFC ; value: 288 µg/mL
CC(=O)N1CCN(c2ccc(OC[C@H]3CO[C@](Cn4ccnc4)(c4ccc(Cl)cc4Cl)O3)cc2)CC1 ; strain or isolate: ATCC 9029 ; read by: broth dilution ; endpoint: MIC100 ; value: 0.25 µg/mL
O=C1NC(=O)C(=Cc2cn(-c3ccccc3)nc2-c2cc3ccccc3oc2=O)C(=O)N1 ; tested at: 150 µg ; read by: agar diffusion / agar ; endpoint: zone ; value: 0 mm
CN(C)C1=NC(=O)/C(=C/c2ccc(Cl)cc2)S1 ; strain or isolate: ATCC 9029 ; read by: broth dilution ; endpoint: MIC100 ; value: >250 µg/mL
CC1=C(Nc2ccccc2)C(=O)c2ccccc2C1=O ; strain or isolate: MTCC 404 ; read by: broth dilution ; endpoint: MIC100 ; value: 125 µg/mL
Cc1nc(Nc2ccccc2)nc2c1C(=N)C(C#N)CN(Cc1ccccc1)C2 ; tested at: 1000 µg/mL ; endpoint: zone ; value: 2.1 mm
CCCCC(CC)COC(=O)c1ccccc1C(=O)OCC(CC)CCCC ; tested at: 10000 µg/mL ; read by: agar diffusion / agar ; endpoint: zone ; value: 0.64 mm

For reference, 2 entries again:

structure,tested at,strain or isolate,read by,endpoint,value
CCCCCOc1ccc(-c2cc(-c3ccc(C(=O)N[C@H]4C[C@@H](O)[C@@H](O)NC(=O)[C@@H]5[C@@H](O)[C@@H](C)CN5C(=O)[C@H]([C@H](O)CC(N)=O)NC(=O)[C@H]([C@H](O)[C@@H](O)c5ccc(O)c(OS(=O)(=O)O)c5)NC(=O)[C@@H]5C[C@@H](O)CN5C(=O)[C@H]([C@@H](C)O)NC4=O)cc3)no2)cc1,,,,MIC50,0.015 µg/mL
CC(=O)OC1OC(Sc2nnc(Cn3nnc(Cn4cc(C(C)=O)c5ccccc54)n3)n2-c2ccc(Cl)cc2)C(OC(C)=O)C(OC(C)=O)C1OC(C)=O,,,agar,MIC99,150 µg/mL